# Measurements published in US20200147199A1 (ROCKEFELLER UNIVERSITY, published 2020).
# Substitutions are numbered along the chain they refer to.
# T1: DENV1 EDIII, polyhistidine-AviTag, produced in HEK-293-6E cells (DENV1)
# T1 construct: also called EDIII of DENV1
# T1 chain: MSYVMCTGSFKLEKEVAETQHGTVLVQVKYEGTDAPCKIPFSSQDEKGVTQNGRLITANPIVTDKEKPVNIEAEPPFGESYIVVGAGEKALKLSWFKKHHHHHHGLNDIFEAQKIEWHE
# T2: WNV EDIII, polyhistidine-AviTag (WNV)
# T2 chain: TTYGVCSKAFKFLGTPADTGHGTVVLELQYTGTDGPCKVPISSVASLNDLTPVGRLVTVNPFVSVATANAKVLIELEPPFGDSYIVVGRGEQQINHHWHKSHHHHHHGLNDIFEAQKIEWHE
# B1: Z013 (MEX18_84) (antibody, V domains shown)
# VH: EVQLLESGGGLVQPGGSLRLSCAASGFTFTSYAMNWVRQAPGKGLEWVSGIGGRGAIAGDGSIYYADSVKGRFTISRDNSKNIVYLQMNGLRVEDTAVYYCAKDRVAFDGFHVWGQGTLVTVSS
# VL: DIQMTQSPPTLSASVGDRVTITCRASQSISSWLAWYQQKPGKAPKLLIYKASSLESGVPSRFSGSGSGTEFSLTISSLQPEDFATYYCQQYNSYPWTFGQGTKVEIK
# B2: Z007 (MEX105_50) (antibody, V domains shown)
# VH: EVQLLESGGGLVRPGGSLRLSCTASGFTFRRYAMAWVRQAPGKGLEWVSLIYDGDDSTYYAKSVKGRFAISRDNSKNTLSLQMNSLRAEDTAVYYCVKDRDNGWSSIVDWGQGTLVTVSS
# VL: DIQMTQSPSTLSASVGDRVTITCRASHSISGWLAWYQQKPGKAPKLLIYQASILESGVPSRFSGSGSGTEFTLTIGSLQPEDFATYFCQQYSTFWTFGQGTKVEIK
# B3: Z008 (MEX105_60) (antibody, V domains shown)
# VH: B2 VH with Y32F, Y52W, D53N, K62E, K65R, A69T, K76H, N84R, V93I
# VL: B2 VL with H27Q, S28T, S30G, G31N, I53V, G76S
# B4: Z009 (MEX105_64) (antibody, V domains shown)
# VH: B2 VH with D53N, K62E, A69T, I70V, K76Q, V93I, K98R
# VL: B2 VL with H27R, S28T, S30G, G31S, S56G, G66V, G76R
# B5: Z055 (MEX84_p4-61) (antibody, V domains shown)
# VH: EVQLVQSGAEVKKPGASVKVSCKASGYTFSGYYIHWLRQAPGQGLEWMGWINSNSGGADSGPRFHGRVTMTRDTSINTAYLELTNLRSDDTAVYYCARRTYYDTRFPYWYFDLWGRGTLVTVSS
# VL: AIRMTQSPSSLSASVGDRVTITCRASQDIGSYLNWYQQKPGKAPNVLISAASTLQSGVPSRISGIGSGTDFTLTISSLQPEDFATYYCQQSLSAPYTFGQGTKLEIK
# B6: Z016 (MEX84_p2-55) (antibody, V domains shown)
# VH: QVQLVQSGAEVKKPGASVKLSCKASGYTFTSYYVHWVRQAPGQGLEWMGIINPGNNFVSFAQNFYDRATMTRDTSTNTVYMELTNLQSEDTAVYYCARTLVAPSAQSMYYFDFWGQGTLVTVSS
# VL: EIVLTQSPGTLSLSPGERGTLSCRASQYITTGHFAWYQQKPGRAPRLLIYGASVRATGVPDRFSGSGAETDFTLTISRLDPEDVGVYYCQQYGSSPVTFGPGTKVDIK
# B7: Z057 (MEX84_p4-54) (antibody, V domains shown)
# VH: EVQLVQSGAEVKRPGASVKVSCKASGYTFADYYIHWVRQAPGLGLEWMGWINPKTGFSHYEQTFQGRVTMARDTSIPAAYMELSSLKSDDTAIYYCARGGRINVAEALRYWGQGSLVTVSS
# VL: DIQMTQSPSTLSTFVGDRVTITCRASQTIGDWLAWYQQKPGKAPKLLISKATRLESGVPSRFSGSGSETEFSLTINSLQPDDVAAYYCQQYMSYPWTFGQGTKLEIK
# B8: Z050 (BRA138_28) (antibody, V domains shown)
# VH: QVQLVQSGAEVKKPGSSVKVSCKAPGGTFSRYSIAWVRQAPGQGLEWMGGINPTFTTPNYAQKFQGRVTITADESTNTAYLDLSSLRSEDTAVYYCARFRYYYESGGYSDASPYYLDYWGQGTLVTVSS
# VL: EIVLTQSPATLSLSPGERVTLSCRASQSVSSYLAWYQQKPGQAPRLLIYDASNRATGIPARFTGSGSGTDFTLTISSLEPEDFAVYYCQQRSNWPLTFGGGTKVEIK
# B9: Z052 (BRA138_62) (antibody, V domains shown)
# VH: QVQLQESGPGLVKPSQTLSLTCTVSGGSITGGVYYWNWIRHHPGKGLEWIGYMFYSGDTDYNPSLRSRVTISGDTSKNKFSLNLNSVTAADTAVYYCARAGFDYGSPVSAFDIWGQGTLVTVSS
# VL: EIVLTQSPATLSLSPGERATLSCRASQSVSSTYLVWYQQKPGQAPRLLIYGASSRATGIPDRFSGSGSGTDFTLTISRLEPEDFAVYFCQQYAHSPRGYTFGQGTKLEIK
# B10: Z056 (MEX84_p2-94) (antibody, V domains shown)
# VH: EVQLVQSGAEVKKPGASVKVSCKASGNTFMGYYFHWVRQAPGQGLEWMGWINPNSGHANIAQTFQGRVTMTRDPSITTAYMELSRLRSDDTAVFYCARGGMLGQLWALDNWGQGTLVTVSS
# VL: DIQMTQSPSTLSASVGDRVTITCRASQSISHWLAWYQQRPGEAPKLLIYQASTLESGVPSRFSGSGSGTEFTLSISSLQPDDFATYYCQQYQSSPYTFGQGTKLEIK
# B11: Z061 (BRA112_36) (antibody, V domains shown)
# VH: EVQLVESGGGVVQPGRSLRLSCAASGFTFSISTIHWVRQAPGKGLEYVVVISHDGNTKYYADSVKGRFIISRDNSKNTVFLQMNSLRPVDTAVYYCARGEVGYFDLWGRGTLVTVSS
# VL: EIVLTQSPATLSLSPGERATLSCRASQSVSSFLAWYQQKPGQPPRLLIYDASTRATGIPARFSGSGSGTDFTLTISSLEPEDFAVYYCQQRSNWPPITFGQGTRLEIK
# B12: Z005 (MEX18_13) (antibody, V domains shown)
# VH: EVQLLESGGGLVQPGGSLRLSCAASGFTFSSYAMSWVRQAPGKGLEWVSSFSGIDDSTWYADSVKGRFTISRDNSKSTLYLQMNSLRAEDTAVYYCAKDRLVRGFAEVLDYWGRGTLVTVSS
# VL: DIQMTQSPSSLSASVGDRVTITCRASQDISKYLAWYQQRPGKVPNLLIYTASTLQSGVPSRFSGSGSGTHFTLTISSLQPEDVATYYCQKYNSVPWTFGQGTKVEIK
# B13: Z053 (BRA138_65) (antibody, V domains shown)
# VH: QLQLQESGPGLVKPSETLSLTCTVSGGSISSYNYYWGWIRQPPGKGLEFIGSIYYTGSTYYNPSLRSRVTISVDTSKNQFSLKLTSVTAADTAVYYCARHGPGMGHNWYFDLWGRGTLVTVSS
# VL: EIVLTQSPATLSLSPGERATLSCRASQSISSYLAWYQQKPGQAPRLLIYDASNRAPGIPARFSGSGSGTDFTLTISSLEPEDFAVYYCQQRSTWLTFGGGTKVEIK
# B14: Z002 (MEX18_27) (antibody, V domains shown)
# VH: EVQLLESGGGLVQPGGSLRLSCATSGFTFSTYAMSWVRQAPGKGLEWVSSFSGVDDSTYYAESVKGRFTISRDNSKNTVYLQMTRLRAEDTAVYYCAKDRGPRGVGELFDSWGQGTLVTVSS
# VL: DIQMTQSPSTLSASVGDRVTMTCRASQSINRWLAWYQQKPGKAPKLLIYTTSTLKSGVPSRFSGSGSGTEFTLTISSLQPDDFATYYCQHFHSVPWTFGQGTKVEIK
# B15: Z003 (MEX18_58) (antibody, V domains shown)
# VH: EVQLLESGGGLVQPGGSLRLSCATSGFTFTTFAMSWVRQAPGKGLEWVSSISGADDSTYYAASVKGRFTISRDNSRSTLFLQMNSLRAEDTAVYYCAKDRGPRGVGELFDSWGQGTLVTVSS
# VL: B14 VL with M21I, N30S, R31K, K45R, H92F
# B16: Z034 (BRA112_09) (antibody, V domains shown)
# VH: EVQLLESGGGLAQPGGSLRLSCETSGFTFRSYGMGWVRQAPGKGLEWVSSIYISGDSTYYAASVKGRFTISRDNSKSTLYLQMDRLTAEDTAVYYCVRDRIQGGFGELYRYWGQGTLVTVSS
# VL: B14 VL with I29V, R31K, T50E, T53I, K55E, P59S, F91Y, S93G, V94Y
# B17: Z011 (MEX105_15) (antibody, V domains shown)
# VH: EVQLLESGGGLVQPGGSLRLSCAASGFTFRTYAMSWVRQPPGKGLEWVSSISAREDSTYFAASVRGRFTISRDNSKNTLYLQMNNLRAEDTALYYCAKDRLQLGVGELYESWGQGTLVTVSS
# VL: B1 VL with P9S, S28N, S30N, K50M, E55Q, S72T, I75V, E81D, Q90H, N92H
# B18: Z017 (MEX84_p2-58) (antibody, V domains shown)
# VH: QVQLVQSGAGMRKPGASVKVSCKASGYSFNDYYIHWVRQAPGQGLEWMGWINPKSGFTNYAQRFQGRVTMTGDTSNSVAYMELTRLTSDDTAVYYCARGGRINAPLGFDPWGQGTLVTVSS
# VL: EIVLTQSPDTLSLSPGETATLSCRASQSIGSISLGWYQQKFGQAPRLLIYGASTRATGTPDRFSGSGSETDFTLTISRLEPEDSAVYYCQQYVSSPLRFGGGTKVEIK
# B19: Z059 (MEX84_p4-34) (antibody, V domains shown)
# VH: EVQLVQSGAEVKTPGSSVKVSCKTSGGTFSNFAITWVRQAPGQGLEWMGGIIPLFGITNYTQKFQGRVTITTDESKTTAYMDLSGLRSEDTAVYFCARGRDSSGRLLDHWGQGTLVTVSS
# VL: EIVMTQSPATLSVSPGERATLSCRASQTVNRNLAWYQQKPGQAPRLLIYAASARATGVPARFSGSGSGTEFTLTISSLQSEDFVVYYCQQYNNWPPLTFGGGTKLEIK
# B20: Z036 (BRA112_91) (antibody, V domains shown)
# VH: EVQLLESGGDLVQPGGSLRLSCAASGFTFSTYGMAWVRQAPGKGLEWLSSISSVDDSKYYAASVKGRFTISRDNSRNTLYLHMNSLRVDDTAVYYCAKDRIPHGLGELYANWGQGTLVTVSS
# VL: DIQMTQSPSTLSASVGDRVTITCRASQSISGWLAWYQQKPGKAPRLLMHKASNLYSGVPSRFSGSGSGTEFTLTISSLQPDDFATYYCQHYHSYPYTFGQGTKVEIK
# Target: T1, DENV1 EDIII, polyhistidine-AviTag, …
# Assay: cross-reactivity ELISA
row,Binder,binding result
1,B1,binds
2,B2,binds
3,B3,binds
4,B4,binds
5,B5,no binding (tested: 10 µg/ml)
6,B6,no binding (tested: 10 µg/ml)
7,B7,no binding (tested: 10 µg/ml)
8,B8,no binding (tested: 10 µg/ml)
9,B9,no binding (tested: 10 µg/ml)
10,B10,no binding (tested: 10 µg/ml)
11,B11,no binding (tested: 10 µg/ml)
12,B12,binds
13,B13,no binding (tested: 10 µg/ml)
14,B14,binds
15,B15,binds
16,B16,binds
17,B17,binds
18,B18,no binding (tested: 10 µg/ml)
19,B19,no binding (tested: 10 µg/ml)

# Target: T2, WNV EDIII, polyhistidine-AviTag
# Assay: cross-reactivity ELISA
row,Binder,binding result
1,B1,no binding (tested: 10 µg/ml)
2,B2,no binding (tested: 10 µg/ml)
3,B3,no binding (tested: 10 µg/ml)
4,B4,no binding (tested: 10 µg/ml)
5,B5,binds
6,B6,binds
7,B7,binds
8,B8,binds
9,B9,binds
10,B10,binds
11,B11,no binding (tested: 10 µg/ml)
12,B20,no binding (tested: 10 µg/ml)
13,B12,no binding (tested: 10 µg/ml)
14,B13,no binding (tested: 10 µg/ml)
15,B14,no binding (tested: 10 µg/ml)
16,B15,no binding (tested: 10 µg/ml)
17,B16,no binding (tested: 10 µg/ml)
18,B17,no binding (tested: 10 µg/ml)
19,B18,binds
20,B19,binds
